Measured values as given in PMC9829398 (Plant Biotechnology Journal, 2022).

Test system: Arabidopsis Col‐0 and fer‐4 seedlings
Test: Growth of Arabidopsis seedlings (root length, shoot fresh weight)
Conditions: Col-0 vs fer-4, 5 μM for 3 days

O=C(O)c1cc(N(Cc2ccccc2O)Cc2cc(O)ccc2O)ccc1O [Lavendustin A]
Dependence on FER of the effect on root and shoot growth: partly dependent on FER
